Laboratory results published in article PMC10213809 (Cell Reports Medicine, 2023).

What was measured:
[1] = system: CHIKV; format: cell-based, Chikungunya virus; details: human fibroblasts (HFF-1), eight-dose response
[2] = system: RNA viruses (CHIKV, WNV, EV-D68, SARS-CoV-2); format: cell-based

## IFN-β
[1]
  IC50, antiviral activity against CHIKV: 0.01969 µg/mL
[2]
  antiviral activity across all tested RNA viruses: potent antiviral activity
